Data from PubChem BioAssay AID1950 (The Scripps Research Institute Molecular Screening Center, 2009).
This is a selection; strong and weak results do not stand in their true shares. Some structures show a salt or complex split into parts, the way the source records it. Calls of active or inactive are those of the source. No stated cut-off is given here; in the data, active means inhibition above about 28%; inactive means the rest.

System: EBNA-1 (Epstein-Barr virus nuclear antigen 1), Human herpesvirus 4
Assay: blockers of EBV EBNA-1 binding to DNA – biochemical, fluorescence polarization, primary screen (AID 1950)
Settings: EBNA-1 DNA binding, at 14.8 µM, active compounds read high

Row | Compound | inhibition
1 | O=C(OC1CN2CCC1CC2)c1ccc([N+](=O)[O-])cc1 (configuration not stated) | inactive: 2.2%
2 | O=C(OCCN1CCN(CCOCc2ccccc2)CC1)C(O)(c1ccccc1)c1ccccc1 | inactive: -2.47%
3 | COc1ccc2c(c1O)-c1c(O)c(OC)cc3c1[C@H](C2)[N+](C)(C)CC3.O=[N+]([O-])c1cc([N+](=O)[O-])c([O-])c([N+](=O)[O-])c1[O-] | inactive: 0.18%
4 | CP(=O)(Nc1ccccc1F)Oc1ccccc1 (configuration not stated) | inactive: 3.59%
5 | CC(C)c1ccc(OP(C)(=O)Nc2ccc(SC(F)(F)F)cc2)cc1 (configuration not stated) | inactive: -12.7%
6 | CCN(CC)CCCOC(=O)C(O)(c1ccccc1)C1CCCCC1 (configuration not stated) | inactive: -3.94%
7 | CP(=O)(Nc1ccccc1)Oc1ccc(F)cc1 (configuration not stated) | inactive: -1.52%
8 | CCCCCOc1ccc(NP(C)(=O)Oc2ccc(Cl)cc2Cl)cc1 (configuration not stated) | inactive: -3.45%
9 | O=[N+]([O-])c1cc([N+](=O)[O-])c(OC2CCCCC2O)c([N+](=O)[O-])c1 (configuration not stated) | inactive: 0.95%
10 | CCOC(=O)c1ccc(NP(C)(=O)Oc2ccc(F)cc2)cc1 (configuration not stated) | inactive: 1.27%
11 | COc1ccc(OP(C)(=O)Nc2ccc(SC(F)(F)F)cc2)cc1 (configuration not stated) | inactive: 1.29%
12 | O=[N+]([O-])c1cc([N+](=O)[O-])c(NCC2CCS(=O)(=O)C2)c([N+](=O)[O-])c1 (configuration not stated) | inactive: -12.9%
13 | COc1ccc(OP(C)(=O)Nc2cccc(Br)c2)cc1 (configuration not stated) | inactive: 1.28%
14 | CN(C)CCOC(=O)C(O)(c1ccccc1)C1CCCCC1 (configuration not stated) | inactive: -0.46%
15 | COc1ccc(NP(C)(=O)Oc2ccccc2OC)cc1 (configuration not stated) | inactive: 8.32%
16 | CP(=O)(Nc1ccc2c(c1)OCCO2)Oc1ccccc1 (configuration not stated) | inactive: -1.74%
17 | Cc1ccccc1NP(C)(=O)Nc1ccccc1C | inactive: 2.15%
18 | CP(=O)(Nc1ccc(SC(F)(F)F)cc1)Oc1ccc(F)cc1 (configuration not stated) | inactive: -1.69%
19 | CCOP(C)(=S)SCC(=O)NC(C)(CC)C(=O)O (configuration not stated) | inactive: 4.34%
20 | CC(C)(C)c1ccc(OP(C)(=O)O)cc1 | inactive: 5.69%
21 | COc1ccccc1OP(C)(=O)Nc1ccccc1Br (configuration not stated) | inactive: 10.2%

Row | Compound | inhibition
22 | CP(=O)(Nc1ccc(Cl)cc1)Oc1ccc(F)cc1 (configuration not stated) | inactive: 8.01%
23 | CN(C)C(=O)c1c([N+](=O)[O-])cc([N+](=O)[O-])cc1[N+](=O)[O-] | inactive: -0.43%
24 | COc1ccc(OP(C)(=O)Nc2ccc(Br)cc2)cc1 (configuration not stated) | inactive: 5.65%
25 | CCN(CC)CC(O)COC(=O)C(O)(c1ccccc1)C1CCCCC1 (configuration not stated) | inactive: 2.06%
26 | O=C(OCCCN1CCCC1)C(O)(c1ccccc1)C1CCCCC1 (configuration not stated) | inactive: 4.34%
27 | COc1ccccc1OP(C)(=O)Nc1c(C)n(C)n(-c2ccccc2)c1=O (configuration not stated) | inactive: 0.04%
28 | CCc1ccc(OP(C)(=O)Nc2cccnc2)cc1 (configuration not stated) | inactive: -8.08%
29 | CP(=O)(Oc1ccccc1)N1CCOC1=O (configuration not stated) | inactive: -2.53%
30 | Nc1ccc2c(ccc3cccnc32)n1.O=[N+]([O-])c1cc([N+](=O)[O-])c(O)c([N+](=O)[O-])c1 | inactive: 1.39%
31 | CCOC(=O)c1ccc(NP(C)(=O)Oc2ccc(Cl)cc2)cc1 (configuration not stated) | inactive: 5.2%
32 | CP(=O)(OC12CC3CC(CC(C3)C1)C2)OC12CC3CC(CC(C3)C1)C2 | inactive: 5.26%
33 | Cc1nc2ccc3ccccc3c2o1.O=[N+]([O-])c1cc([N+](=O)[O-])c(O)c([N+](=O)[O-])c1 | inactive: 8.66%
34 | CP(=O)(OCCOc1ccccc1)OCCOc1ccccc1 | inactive: -0.58%
35 | CP(=O)(Nc1ccc(Cl)cc1Cl)Oc1ccccc1 (configuration not stated) | inactive: -6.92%
36 | Cc1cc(C)cc(OP(C)(=O)Nc2cccc(C(F)(F)F)c2)c1 (configuration not stated) | inactive: 0.92%
37 | COc1ccccc1OP(C)(=O)Nc1ccc(C)c(C)c1 (configuration not stated) | inactive: -2.05%
38 | COc1ccc(OP(C)(=O)Nc2ccccc2Br)cc1 (configuration not stated) | inactive: 1.16%
39 | O=[N+]([O-])c1cc([N+](=O)[O-])c(Nc2ccccn2)c([N+](=O)[O-])c1 | inactive: -2.7%
40 | Cc1c(NP(C)(=O)Oc2ccc(C(C)C)cc2)c(=O)n(-c2ccccc2)n1C (configuration not stated) | inactive: 0.42%
41 | COc1ccccc1OP(C)(=O)Nc1ccc(C)cc1C (configuration not stated) | inactive: -2.68%
42 | CP(=O)(Nc1ccccn1)Oc1ccccc1 (configuration not stated) | inactive: 2.24%

Row | Compound | inhibition
43 | CCc1ccc(OP(C)(=O)O)cc1 | inactive: 1.37%
44 | COc1ccccc1OP(C)(=O)Nc1ccc(Br)cc1 (configuration not stated) | inactive: -15.4%
45 | COc1ccc(OP(C)(=O)Nc2ccccn2)cc1 (configuration not stated) | inactive: -2.59%
46 | CN(C)CCOC(=O)C(O)(c1ccccc1)C1CCCC1 (configuration not stated) | inactive: 6.09%
47 | CCN(CC)CCCOC(=O)C(O)(c1ccccc1)c1ccccc1 | inactive: -3.3%
48 | Cc1ccc(NP(C)(=O)Oc2ccccc2)c(C)c1 (configuration not stated) | inactive: 5.02%
49 | COc1ccccc1OP(C)(=O)Nc1ccc(C)cc1 (configuration not stated) | inactive: 6.71%
50 | CCOC(=O)c1ccc(NP(C)(=O)Oc2ccccc2)cc1 (configuration not stated) | inactive: 0.99%
51 | Cc1cc(C)cc(OP(C)(N)=O)c1 (configuration not stated) | inactive: -5.47%
52 | COc1ccc(OP(C)(=O)Nc2cccc(F)c2)cc1 (configuration not stated) | inactive: -4.95%
53 | COc1ccccc1OP(C)(=O)Nc1cc(Cl)ccc1C (configuration not stated) | inactive: 3.91%
54 | O=[N+]([O-])c1cc([N+](=O)[O-])c(Nc2cccnc2)c([N+](=O)[O-])c1 | inactive: 4.35%
55 | O=[N+]([O-])c1ccc2c(c1)C=Nc1ccccc1O2 | inactive: 9.68%
56 | Cc1cccc(C)c1OP(C)(N)=O (configuration not stated) | inactive: -6.32%
57 | CC(C)(C)c1ccc(OP(C)(=O)Nc2ccc(SC(F)(F)F)cc2)cc1 (configuration not stated) | inactive: -0.89%
58 | CP(=S)(Nn1cnnc1)Oc1ccccc1 (configuration not stated) | inactive: 2.15%
59 | CP(=O)(Nc1ccccc1Br)Oc1ccccc1 (configuration not stated) | inactive: -8.72%
60 | COc1ccccc1OP(C)(=O)Nc1ccccc1 (configuration not stated) | inactive: 1.03%
61 | CCOC(=O)c1ccc(NP(C)(=O)Oc2ccc(OC)cc2)cc1 (configuration not stated) | inactive: -10.1%
62 | O=[N+]([O-])c1cc([N+](=O)[O-])c(O)c([N+](=O)[O-])c1.c1ccc(Oc2ccncc2)cc1 | inactive: -12.1%
